# Reference: paper PMC9674292
# Molecular target: 6xHis-tagged SNAP-ΔNS-VopF (V. cholerae)
substance,measurement,value
Skeletal actin (rabbit skeletal muscle) (from UniProt P68135 1-377) (natural protein),elongation rate of filaments at surface-anchored 6xHis-SNAP-ΔNS-VopF from 10 μM unlabeled actin monomers with 15 μM PFN (mf-TIRFM),25.3 subunits/s
